# Experimental data as given in publication PMC3836677 (The Biochemical journal, 2012).
# System: CCCCCC(=O)SCCNC(=O)CCNC(=O)[C@H](O)C(C)(C)COP(=O)(O)OP(=O)(O)OC[C@H]1O[C@@H](n2cnc3c(N)ncnc32)[C@H](O)[C@@H]1OP(=O)(O)O
# Assay: purified protein
# Settings: 50 mM HEPES-K pH 8.0, 2 mM EDTA, 0.3 mM DTNB, 37 °C
Substance,Km,kcat,kcat/Km
PA5202 (Pseudomonas aeruginosa PAO1; R43A),600 ± 50 µM,1.1 s⁻¹,2000 M⁻¹ s⁻¹

# System: CC(C)(COP(=O)(O)OP(=O)(O)OC[C@H]1O[C@@H](n2cnc3c(N)ncnc32)[C@H](O)[C@@H]1OP(=O)(O)O)[C@@H](O)C(=O)NCCC(=O)NCCSC(=O)C[C@@](C)(O)CC(=O)O
# Assay: purified protein
# Settings: 50 mM HEPES-K pH 8.0, 2 mM EDTA, 0.3 mM DTNB, 37 °C
Substance,Km,kcat,kcat/Km
PA5202 (Pseudomonas aeruginosa PAO1; H48A),200 ± 20 µM,1.1 s⁻¹,5000 M⁻¹ s⁻¹
PA5202 (Pseudomonas aeruginosa PAO1; R41A),400 ± 60 µM,1.3 s⁻¹,4000 M⁻¹ s⁻¹
PA5202 (Pseudomonas aeruginosa PAO1; R85A),500 ± 50 µM,2.1 s⁻¹,4000 M⁻¹ s⁻¹
PA5202 (Pseudomonas aeruginosa PAO1; R103A),1000 ± 100 µM,1.8 s⁻¹,2000 M⁻¹ s⁻¹
PA5202 (Pseudomonas aeruginosa PAO1; R104A),400 ± 30 µM,1.2 s⁻¹,3000 M⁻¹ s⁻¹
PA5202 (Pseudomonas aeruginosa PAO1; S54A),100 ± 10 µM,0.5 s⁻¹,5000 M⁻¹ s⁻¹
PA5202 (Pseudomonas aeruginosa PAO1; S65A),500 ± 40 µM,3.9 s⁻¹,7000 M⁻¹ s⁻¹
PA5202 (Pseudomonas aeruginosa PAO1; S105A),500 ± 40 µM,2.7 s⁻¹,5000 M⁻¹ s⁻¹
